A mixed list of measured activities; the numbers were collected in NIAID ChemDB.

All rows: host cell toxicity; cell line: HeLa; read-out: CC50

CCn: concentration that lowers growth or viability of the cells by n%.

structure | value
COc1cc(/C=C/C(=O)Oc2c(-c3ccc(Cl)cc3)oc3ccccc3c2=O)ccc1O | 6.25 µM
CO[C@H](CO)[C@@H](O)CCn1cc(C)c(=O)[nH]c1=O | >400 µg/mL
[N-]=[N+]=N[C@H]1[C@@H](F)[C@H](n2cnc3c(N)ncnc32)O[C@@H]1CO | >400 µg/mL
Nc1ncnc2c1CCN2[C@@H]1O[C@H](CO)C[C@H]1O | 40 µg/mL
CON1CCc2c([nH]c3ccccc23)[C@@H]1[C@@H](N)CSC | 40 µg/mL
O=C1/C(=C/c2ccc(O)cc2)COc2ccccc21 | 6.25 µM
N=c1ccn2c(n1)O[C@H]1[C@H](O)[C@@H](CO)O[C@H]12 | 0.05 µg/mL
Nc1ncnc2c([C@@H]3O[C@H](CSCCC(N)C(=O)O)C[C@H]3O)[nH]nc12 | 100 µg/mL
C=CCc1nc(C)n2c(=O)[nH]c(=S)[nH]c12 | 200 µg/mL
COc1cc(/C=C/C(=O)Oc2c(-c3ccc(Cl)c(Cl)c3)oc3ccccc3c2=O)ccc1OC(C)=O | 0.72 µM
COc1ccc(Cc2coc3cc(OC)cc(OC)c3c2=O)cc1 | 1.56 µM
CC(=O)c1c(-c2ccc(Cl)c(Cl)c2)oc2ccccc2c1=O | 3.57 µM
Nc1ncnc2c([C@@H]3O[C@H](CCl)[C@@H](O)[C@H]3O)[nH]nc12 | 400 µg/mL
O=C(Oc1c(-c2ccc(Cl)cc2)oc2ccccc2c1=O)c1cc(O)c(O)c(O)c1 | 5.31 µM
O=C1c2ccccc2OCC1Cc1ccc(O)cc1 | 1.56 µM
Cc1cn([C@H]2O[C@H](CO)[C@@H](N=[N+]=[N-])[C@H]2F)c(=O)nc1N | >400 µg/mL
COc1ccc(CC2COc3ccccc3C2=O)cc1 | 6.25 µM
CO[C@@H]1[C@@H](OC(N)=O)[C@@H](O)[C@H](Oc2ccc3c(O)c(NC(=O)c4ccc(O)c(CC=C(C)C)c4)c(=O)oc3c2C)OC1(C)C | 28 µg/mL
COc1ccc(Cc2coc3ccccc3c2=O)cc1 | 50 µM
Nc1ncnc2c1ncn2[C@@H]1C[C@H](COP(=O)(O)O)[C@@H](O)[C@H]1O | >400 µg/mL
O=c1c(Cc2ccccc2)coc2ccccc12 | 50 µM
CO[C@H](CO)[C@@H](O)CCn1cnc2c(=O)[nH]c(N)nc21 | >400 µg/mL
Nc1ncnc2c1ncn2[C@@H]1C[C@@H](O)[C@@H](O)[C@H]1O | >400 µg/mL
Nc1ncnc2c1ncn2CC[C@H](O)CCO | >400 µg/mL
O=C(/C=C/c1ccc(O)c(O)c1)Oc1c(-c2ccc(Cl)c(Cl)c2)oc2ccccc2c1=O | 1.41 µM
O=C1/C(=C/c2ccc(Cl)cc2)COc2ccccc21 | 6.25 µM

Repeating the final 2 entries:

structure	value
O=C(/C=C/c1ccc(O)c(O)c1)Oc1c(-c2ccc(Cl)c(Cl)c2)oc2ccccc2c1=O	1.41 µM
O=C1/C(=C/c2ccc(Cl)cc2)COc2ccccc21	6.25 µM

Neighbouring rows are from separate reports.